## Library screen at single concentrations

Data taken from ChEMBL document CHEMBL3988442, “University of Dundee, Small-Polar-MMV Screening Library” (2021).

Mtb glucose medium: 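Growth of Mycobacterium tuberculosis over 3 days (7H9 medium with glucose and tyloxapol); the read-out is not stated. Tested at 500 µM. The record gives no direction; compounds that gave an IC50 in retests scored well above the rest, so higher reads as more growth inhibition. Size under these conditions: about 18,000 compounds, about 1,400 of them at 50% or above in at least one test.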
Mtb cholesterol medium: 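Growth of Mycobacterium tuberculosis over 4 days (cholesterol / DPPC medium with tyloxapol); the read-out is not stated. Tested at 500 µM. Direction is inferred from retests: higher values go with more growth inhibition. About 18,000 compounds were tested under these conditions; 5% (about 900) showed 50% or more at least once.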

Values are the deposited “Percent Effect”, in %.
The record does not define 0% and 100%; most values in the screen are far below 50% and negative numbers occur (in some assays of this library far below -100).
Many other results are left out here, so strong results are more common than in the screen.
A dash means the value is not listed here; it may have been measured.

compound | Mtb glucose medium | Mtb cholesterol medium
CN(CCc1ccccc1)CCS(=O)(=O)CCC(N)=O | 86.91% | 73.96%
CCc1nnc(SCC(=O)Nc2cc(C)nn2C)[nH]1 | - | -17.45%
CC[C@H](N)C(=O)N(C)Cc1cccc(OC(F)(F)F)c1 | 66.98% | -
CC(Cc1ccco1)NC(=O)c1cccnc1O (stereo unspecified) | 31.58% | -
CCOC(=O)C1CCCN(C(=O)c2onc(C)c2Cl)C1 (stereo unspecified) | 75.1% | 72.82%
c1cnc(N2CCCC2)c(OC2CCNC2)c1 (stereo unspecified) | -23.84% | -
CCNC(=O)c1nnsc1-c1ccc(C)cc1 | 40.97% | -
O=C(c1cc(C2CC2)on1)N1CC(O)(C2CC2)C1 | 69.13% | 64.43%
Cn1c(=O)[nH]c2ccc(F)cc21 | 13.61% | -
CN(C(=O)c1cccc(F)c1F)S(C)(=O)=O | 12.38% | -
NCCCN1CCN(c2ccccc2)CC1 | -3.658% | -9.924%
Cc1cc(C)n(CC(=O)N(C)C2CCCC2)n1 | 12.17% | -
Cc1c[nH]c(C(=O)NC(c2nccn2C)C2CC2)n1 (stereo unspecified) | - | 7.004%
CN(C)Cc1ccc(CN)s1 | 15.64% | -
CSC(C)C(=O)NCCNC(=O)C(C)C (stereo unspecified) | 4.872% | -
COCC(=O)NC(C)c1ccc(OC(C)C)c(OC)c1 (stereo unspecified) | - | 7.605%
NC(=O)C1CCN(C(=O)COc2ccc(F)cc2Br)C1 (stereo unspecified) | 68.78% | -
CCOC(=O)Cn1nnc(-c2ccc(F)cc2)n1 | 16.69% | -
CNS(=O)(=O)c1ccccc1S(=O)(=O)NC1CCOC1 (stereo unspecified) | 2.926% | -
COc1cccc(NCCC#N)c1 | 30.24% | 25.01%
CN(Cc1cc(Cl)cn1C)C(=O)c1cnn(C)c1 | -1.258% | -
O=C(c1cccc(=O)[nH]1)N1CC(N2CCCCC2)C1 | - | -21.8%
NCC(O)c1ccc(F)cc1F (stereo unspecified) | 41.17% | -
CCN1CCN(c2ccc(F)cc2C(C)N)CC1 (stereo unspecified) | 22.04% | -
NC(=O)CN1CCCC(Nc2ccc(F)c(F)c2)C1 (stereo unspecified) | 44.26% | -
CCNC(=O)CN(CC)S(=O)(=O)c1ccc(C)cc1 | 59.12% | -
CC(C)(C)O[C@H]1C[C@H](N)C1 | - | -7.159%
Cc1nc(CN2CCCC(N)C2)cs1 (stereo unspecified) | - | 10.75%
NC(=O)CN1CCCN(Cc2ccccc2)CC1 | -0.7916% | -
CC(O)CN(C)C1CCNCC1 (stereo unspecified) | -2.354% | -
CC(NCC1(C)OCCO1)c1cccc(F)c1 (stereo unspecified) | 0.4142% | -
Cc1ccc(CS(=O)(=O)c2ncnn2C)cc1 | 38.28% | -
COc1ccccc1NC(=O)CN1CCCC1 | - | -3.979%
CN(CCCS(C)(=O)=O)C(=O)c1cccc(F)c1Cl | 16.34% | -
COc1cccc(CN2CCCS(=O)(=O)CC2)c1 | 17.39% | -2.709%
Cc1cc(N2CCC3(CC2)OCCO3)n2ncnc2n1 | - | -21.6%
Cn1ncc(CN)c1C(F)(F)F | -1.92% | -
Nc1nnc(SCc2ccno2)s1 | 6.598% | -2.424%
Cc1nc(C)c(C)c(NCC(O)c2ccccn2)n1 (stereo unspecified) | -6.008% | -
N#Cc1ccccc1CN1CCn2ccnc2C1 | -11.65% | -
CCN(Cc1ccoc1)C(=O)C1(C)CCCNC1 (stereo unspecified) | - | 5.576%
CCN(Cc1nc(COC)no1)C(=O)c1ccoc1C | - | -10.12%
COc1ccnc(NCCS(=O)(=O)c2ccccc2)n1 | 65.5% | 57.15%
CN1CCCC2(CCNC2)C1=O (stereo unspecified) | 1.838% | -
O=C(c1ccccc1C(F)(F)F)N1CCCNCC1 | 25.8% | -
NCCn1cc(Br)ccc1=O | 6.916% | -
C[C@@]1(O)CCN(C(=O)CN)C[C@@H]1Cc1ccccc1 | 55.82% | 62.35%
O=C(NCc1cn2ccccc2n1)C1CC1 | - | 1.84%
Cc1ccc([C@@H](O)CN)cc1 | 15.43% | 9.149%
CN1CCCN(C(=O)c2cc(C3CC3)on2)CC1 | 16.93% | 12.9%
COc1ccccc1NC(=O)CN1CCCC(OC)C1 (stereo unspecified) | 46.67% | -
CC(C)C(=O)NCCNCc1cccc(C#N)c1 | -3.846% | -
Cc1ccc(C(=O)NCCN2CCOCC2)c(C)c1 | - | -2.337%
COc1ccc(CNc2ccncc2F)cc1C#N | 77.6% | -
COC(=O)N1CCN(c2ncccn2)CC1 | - | 20.64%
CC(CO)NC(=O)NCc1ccnc(N2CCCC2)c1 (stereo unspecified) | 4.766% | -
CCc1nc(C(C)(C)N)[nH]c(=O)c1C | - | -7.82%
COc1cccc2c(N)c(C)cnc12 | -38.1% | -
COCCn1cc(CNC(=O)NCc2cccs2)cn1 | -2.061% | -15.16%
COc1ccc(CNC(=O)CNC2CCCSC2)cc1 (stereo unspecified) | 67.93% | 66.05%
Cc1ccc(C(C)N(C)C(=O)c2cccnc2O)s1 (stereo unspecified) | 21.17% | -
CN(C)CCNC(=O)CCS(=O)(=O)c1ccc(Cl)cc1 | -9.115% | 0.4487%
CC(C)C(N)CCN(C)C(=O)CC(F)(F)F (stereo unspecified) | -4.46% | -
CCCC(=O)Nc1ccc(N2CCN(CC)CC2)cc1 | 21.66% | -
O=C(CCn1cncn1)N1CCN(c2nccs2)CC1 | 9.286% | -
CSC(C)(C)CNC(=O)NCCC1CCCO1 (stereo unspecified) | 17.11% | -
O=C(NCc1ccncc1)OCC(F)(F)F | - | 33.86%
CC1(C)CN(C(=O)c2cc(Br)c[nH]2)CCO1 | 69.49% | 57.78%
C[C@@H]1CN(C(=O)CCc2ccnn2C)C[C@H](C)O1 | 8.975% | -
CCn1cc(Br)c(=O)c(NC(=O)CC(F)(F)F)c1 | - | 1.564%
CN1CCCN(C(=O)COc2ccc(Br)cc2)CC1 | 25.22% | -
O=C(NC1CCN(C2CCOCC2)CC1)c1ccc[nH]1 | - | 1.504%
CCC(C)(C)C(=O)NCC(C)(C)N1CC[S+]([O-])CC1 | - | -11.12%
CN1C(=O)[C@H]2CN(Cc3ccsc3)C[C@H]2C1=O | 3.554% | -
O=C1CC(N2CCOCC2)C(=O)N1C1CCCC1 (stereo unspecified) | 8.226% | -
CCN(CC)C(=O)Nc1cc(C(N)=O)ccc1C | 16.27% | -

7 of the entries, repeated:

{"compound": "Nc1nnc(SCc2ccno2)s1", "Mtb glucose medium": 6.598, "Mtb cholesterol medium": -2.424}
{"compound": "N#Cc1ccccc1CN1CCn2ccnc2C1", "Mtb glucose medium": -11.65}
{"compound": "CN(CCc1ccccc1)CCS(=O)(=O)CCC(N)=O", "Mtb glucose medium": 86.91, "Mtb cholesterol medium": 73.96}
{"compound": "CC(Cc1ccco1)NC(=O)c1cccnc1O", "stereo": "stereo unspecified", "Mtb glucose medium": 31.58}
{"compound": "CCNC(=O)CN(CC)S(=O)(=O)c1ccc(C)cc1", "Mtb glucose medium": 59.12}
{"compound": "Cc1nc(C)c(C)c(NCC(O)c2ccccn2)n1", "stereo": "stereo unspecified", "Mtb glucose medium": -6.008}
{"compound": "Cc1nc(CN2CCCC(N)C2)cs1", "stereo": "stereo unspecified", "Mtb cholesterol medium": 10.75}